Values from PubChem BioAssay AID624099 (ICCB-Longwood, 2012).
Test: 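Host factors E2 relies on to silence an HPV18 LCR reporter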 (primary screen). Cells: human C33A cervical carcinoma cells (HPV-negative) stably expressing BPV1 E2 and an HPV18 LCR luciferase reporter. Reagent: siRNA pool against human genes, 40 nM. Timing: 72 h. Measured: 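Per-well luciferase luminescence, z-scored on each plate against the plate mean and SD with control wells left out, then averaged across three replicate plates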. Reading the numbers: mean z-score and z-score: higher = stronger reporter signal, weaker E2 silencing. Rule for the call: 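Mean z ≥ 2 together with z ≥ 2 in two or more of the three replicates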.
This is a random part of about 21,000 reagents tested. In the full data, 497 (2.4%) are marked active. 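Higher z means weaker E2 silencing; only reporter increases were scored, and knock-downs that hurt cell survival may mask genuine repressor factors.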 Entries without a mark were called inactive.

gene | PubChem SID | mean z-score | z-score, replicate A | z-score, replicate B | z-score, replicate C
RACGAP1 (GeneID 29127) | SID134313509 | 0.88 | 0.96 | 1.11 | 0.56
CEP295 (GeneID 85459) | SID134328292 | -0.95 | -0.75 | -0.84 | -1.27
SMIM45 (GeneID 339674) | SID134329110 | -0.03 | 0 | -0.13 | 0.03
PI4KAP2 (GeneID 375133) | SID134329592 | -0.52 | -0.65 | -0.25 | -0.67
CEP19 (GeneID 84984) | SID134319103 | -0.28 | -0.19 | -0.29 | -0.38
GIGYF1 (GeneID 64599) | SID134318350 | 0.89 | 0.84 | 0.9 | 0.92
KYAT1 (GeneID 883) | SID134313726 | -0.44 | -0.3 | -0.76 | -0.27
MIR600HG (GeneID 81571) | SID134318774 | 1.29 | 1.22 | 1.7 | 0.95
LOC388716 (retired record) (GeneID 388716) | SID134327025 | -0.83 | -0.32 | -1.07 | -1.09
THOC5 (GeneID 8563) | SID134319364 | -1.59 | -1.68 | -1.39 | -1.7
PPA1 (GeneID 5464) | SID134317369 | 0.07 | -0.08 | 0.03 | 0.25
UBXN6 (GeneID 80700) | SID134313639 | 0.51 | 0.27 | 0.61 | 0.64

Part of the list above, reformatted:
gene	PubChem SID	mean z-score	z-score, replicate A	z-score, replicate B	z-score, replicate C
MIR600HG (GeneID 81571)	SID134318774	1.29	1.22	1.7	0.95
LOC388716 (retired record) (GeneID 388716)	SID134327025	-0.83	-0.32	-1.07	-1.09

Additional entries:
gene | PubChem SID | mean z-score | z-score, replicate A | z-score, replicate B | z-score, replicate C
VTN (GeneID 7448) | SID134317634 | -0.33 | -0.4 | -0.05 | -0.55
CLCA3P (GeneID 9629) | SID134315195 | -0.59 | -0.57 | -0.71 | -0.49
OR6C70 (GeneID 390327) | SID134329939 | 0.86 | 0.96 | 0.95 | 0.68
LRAT (GeneID 9227) | SID134314847 | -0.57 | -0.58 | -0.64 | -0.5
BICDL1 (GeneID 92558) | SID134326747 | 0.32 | 0.69 | 0.17 | 0.11
IKZF3 (GeneID 22806) | SID134312071 | -0.87 | -1.15 | -0.65 | -0.81
TNFAIP1 (GeneID 7126) | SID134315047 | -0.08 | -0.18 | -0.03 | -0.03
PHF10 (GeneID 55274) | SID134317578 | -0.81 | -1.06 | -1.04 | -0.31
PARVA (GeneID 55742) | SID134310855 | 0.97 | 0.98 | 1.03 | 0.89
CFAP141 (GeneID 388701) | SID134327110 | -0.06 | -0.24 | -0.06 | 0.13
DENND11 (GeneID 57189) | SID134327765 | 1.45 | 1.39 | 1.35 | 1.63
